Source: PubChem BioAssay AID624099 (ICCB-Longwood, 2012)
Here is one part, drawn at random, of about 21,000 deposited reagents. 497 of them (2.4%) were called active. 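Higher z means weaker E2 silencing; only reporter increases were scored, and knock-downs that hurt cell survival may mask genuine repressor factors.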 A number with no mark means an inactive call.

Test: 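Knock-downs relieving repression by E2 of an HPV18 LCR luciferase reporter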 (primary screen)
System: human C33A cervical carcinoma cells (HPV-negative) stably expressing BPV1 E2 and an HPV18 LCR luciferase reporter
Knock-down reagent: siRNA pool against human genes, 40 nM
Duration: 72 h
Measurement: 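Per-well luciferase luminescence, z-scored on each plate against the plate mean and SD with control wells left out, then averaged across three replicate plates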
Direction: mean z-score and z-score: higher = stronger reporter signal, weaker E2 silencing
Hit rule: 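Hit if mean z-score reaches 2 and two or more of three replicate z-scores also reach 2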

For JAKMIP2, the entry reads mean z-score -0.78; z-score, replicate A = -0.59; z-score, replicate B = -0.83; z-score, replicate C = -0.93.
RNF135 showed mean z-score 0.85; z-score, replicate A = 0.9; z-score, replicate B = 0.53; z-score, replicate C = 1.12.
With knock-down of SEC16A, the screen gave mean z-score 0.1; z-score, replicate A = -0.04; z-score, replicate B = 0.15; z-score, replicate C = 0.2.
DOHH showed mean z-score -0.2; z-score, replicate A = -0.31; z-score, replicate B = 0.05; z-score, replicate C = -0.34.
BBS4 scored mean z-score 1.2; z-score, replicate A = 1.12; z-score, replicate B = 1.18; z-score, replicate C = 1.29.
Against NPBWR2, the values are mean z-score 0.39; z-score, replicate A = 0.35; z-score, replicate B = 0.34; z-score, replicate C = 0.48.

Only “z-score, replicate A” (2 entries from above):
BBS4: 1.12
NPBWR2: 0.35

The list goes on.
For IDH3A the deposit lists mean z-score 0.29; z-score, replicate A = 0.45; z-score, replicate B = 0.15; z-score, replicate C = 0.26.
For CD48, the values are mean z-score 1.28; z-score, replicate A = 1.52; z-score, replicate B = 1.24; z-score, replicate C = 1.07.
For RNASE2 the deposit lists mean z-score 0.91; z-score, replicate A = 0.77; z-score, replicate B = 1.04; z-score, replicate C = 0.92.
Silencing of FGF19 came out at: mean z-score -0.67; z-score, replicate A = -0.89; z-score, replicate B = -0.53; z-score, replicate C = -0.59.
Silencing of KMT5A gave: mean z-score -0.71; z-score, replicate A = -0.97; z-score, replicate B = -0.6; z-score, replicate C = -0.55.
With knock-down of ATP1A2, the screen gave mean z-score 1.17; z-score, replicate A = 0.87; z-score, replicate B = 1.25; z-score, replicate C = 1.38.
For LOC389607 (retired record), the entry reads mean z-score 1.68; z-score, replicate A = 1.5; z-score, replicate B = 1.76; z-score, replicate C = 1.78.
Silencing of GPR137B gave: mean z-score 1.81; z-score, replicate A = 1.96; z-score, replicate B = 1.85; z-score, replicate C = 1.63.
